Anti-infective test results gathered from many reports (values: NIAID ChemDB through PubChem).

Common to all: tests in culture; organism: Influenza A virus; method: cytopathic effect; measure: EC50

An empty or dashed field is not shown. Rows are shuffled and stem from different studies. ECn: concentration that inhibits the pathogen or its effect by n%. a–b is a range or a potency band.

compound,strain or isolate,cells,value
Cc1ccccc1NC(=O)CSc1sc(N)nc1-c1ccc(Br)cc1Br,H1N1 A/PR/8/34,MDCK cells,0.97 µM
Cc1cc(Cl)c([N+](=O)[O-])c(N2CC[N+]3(CC2)CC[N+]2(CCN(c4nc(C)cc(Cl)c4[N+](=O)[O-])CC2)CC3)n1,-,MDCK,>70 µg/mL
CO/N=C(/C#N)C(=O)NCC1=NOC(C)(C)C1,A/WSN/33,MDCK,>100 µg/mL
C/C=C1\[C@H](OC2O[C@H](CO)[C@@H](O)[C@H](O)[C@H]2O)OC=C(C(=O)OC)[C@H]1CC(=O)OCC1O[C@H](OCCc2ccc(O)c(O)c2)[C@@H](O)[C@H](O)[C@H]1O,H3N2,MDCK,>100 µM
O=[N+]([O-])c1ccc(N2CC[N+]3(CC2)CC[N+]2(CCN(c4ccc([N+](=O)[O-])cc4[N+](=O)[O-])CC2)CC3)c([N+](=O)[O-])c1,-,MDCK,>70 µg/mL
CC(C)CCCC(C)C1CCC2C3CC=C4CC(O)CCC4(C)C3CCC12C,Influenza A/Ishikawa/7/82 (H3N2),MDCK,>200 µM
C/C=C1\[C@H](OC2O[C@H](CO)[C@@H](O)[C@H](O)[C@H]2O)OC=C(C(=O)OC)[C@H]1CC(=O)OC,H3N2,MDCK,>100 µM
Cc1cc(=O)c2c(O)c3c(O)cc(O)c4c5c(O)cc(O)c6c(O)c7c(=O)cc(C)c8c1c2c(c34)c(c65)c78,A/Brazil,MDCK,>100 µg/mL
NC(=O)c1c[se]c([C@@H]2O[C@H](CO)[C@@H](O)[C@H]2O)n1,A/NWS/33,MDCK,0.7 µg/mL
Cc1cc(N2CC[N+](C)(C)CC2)c([N+](=O)[O-])c(N2CC[N+](C)(C)CC2)c1,-,MDCK,>70 µg/mL
Nc1ccc(S(=O)(=O)O)c2ccccc12,Influenza A/Ishikawa/7/82 (H3N2),MDCK,>200 µM
NC(=O)c1ncn([C@@H]2O[C@H](CO)[C@@H](O)[C@H]2O)n1,Influenza A/Ishikawa/7/82 (H3N2),MDCK,4 µg/mL
NC12CC3CC(CC(C3)C1)C2,H1N1 A/PR/8/34,MDCK cells,134.5 µM
C=CCO/N=C(\C)C(=O)NCC1=NOC(C(C)(C)C)C1,A/WSN/33,MDCK,1–10 µg/mL
CCC1[C@H](OC2O[C@H](CO)[C@@H](O)[C@H](O)[C@H]2O)OC=C(C(=O)O)[C@H]1CC(=O)OCCc1ccc(O)cc1,H3N2,MDCK,>100 µM
Cc1nc(N2CCC[N+]3(CC2)CC[N+]2(CCCN(c4nc(C)nc5c4no[n+]5[O-])CC2)CC3)c2c(no[n+]2[O-])n1,-,MDCK,>70 µg/mL
NC(=O)c1ncn([C@@H]2O[C@H](CO)[C@@H](O)[C@H]2O)n1,Ishikawa,MDCK,8 µg/mL
CC(C)(C)C1CC(CNC(=O)/C(C#N)=N/OCc2cccnc2)=NO1,A/WSN/33,MDCK,>100 µg/mL
CC(C)CCCC(C)C1CCC2C3CC=C4CC(OC(=O)Nc5ccc(S(=O)(=O)O)c6cccc(S(=O)(=O)O)c56)CCC4(C)C3CCC12C,Influenza A/Ishikawa/7/82 (H3N2),MDCK,7 µM
CC(N)C12CC3CC(CC(C3)C1)C2,H3N2 A/HK/7/87,MDCK cells,0.15 µM
O=[N+]([O-])c1c(Cl)ncnc1N1CC[N+]2(CC1)CC[N+]1(CCN(c3ncnc(Cl)c3[N+](=O)[O-])CC1)CC2,-,MDCK,>70 µg/mL
CCOC(=O)C1=C[C@@H](OC2CCCCC2)[C@H](NC(C)=O)[C@@H](N)C1,H1N1 A/PR/8/34,MDCK cells,28.5 µM
Nc1nccc2c1ncn2[C@@H]1C[C@H](CO)[C@@H](O)[C@H]1O,-,MDCK,>16 µg/mL
C=CCO/N=C(\C#N)C(=O)NCC1=NOC(C(C)(C)C)C1,A/WSN/33,MDCK,1–10 µg/mL

For reference, 2 entries again:

| compound | strain or isolate | cells | value |
|---|---|---|---|
| Cc1cc(Cl)c([N+](=O)[O-])c(N2CC[N+]3(CC2)CC[N+]2(CCN(c4nc(C)cc(Cl)c4[N+](=O)[O-])CC2)CC3)n1 | - | MDCK | >70 µg/mL |
| Cc1cc(=O)c2c(O)c3c(O)cc(O)c4c5c(O)cc(O)c6c(O)c7c(=O)cc(C)c8c1c2c(c34)c(c65)c78 | A/Brazil | MDCK | >100 µg/mL |